Structure probing of HIV-1 leader RNA with DMS

RNA: 5' end of the HIV-1 NL4-3 genome, made in vitro. Positions 1-437 read:
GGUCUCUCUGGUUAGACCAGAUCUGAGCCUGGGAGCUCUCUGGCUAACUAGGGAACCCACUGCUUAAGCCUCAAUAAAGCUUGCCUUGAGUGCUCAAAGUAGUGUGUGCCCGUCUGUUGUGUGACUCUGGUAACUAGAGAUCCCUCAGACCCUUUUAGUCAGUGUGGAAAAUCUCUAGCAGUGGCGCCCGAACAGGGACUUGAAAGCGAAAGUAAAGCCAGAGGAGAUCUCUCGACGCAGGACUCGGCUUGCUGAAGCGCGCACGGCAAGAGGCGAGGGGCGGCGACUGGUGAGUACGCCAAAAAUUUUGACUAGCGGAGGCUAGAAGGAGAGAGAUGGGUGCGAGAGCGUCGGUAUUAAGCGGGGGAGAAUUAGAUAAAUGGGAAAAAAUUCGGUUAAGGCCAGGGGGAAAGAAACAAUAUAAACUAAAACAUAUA

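Mutant RNA libraries with 1G, 2G or 3G starts, with or without cap, were folded at 37 °C for 30 min. High salt was 300 mM KCl and 5 mM MgCl2, low salt 40 mM KCl and 0.1 mM MgCl2; monomer and dimer were parted on a native gel. Each band was probed in the gel with DMS (170 mM, 15 min, 37 °C), with ethanol as control, and sequenced.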

Scale: normalised reactivity, A and C only; low values point to paired or protected bases, higher values to unpaired ones.
Sample: 2G uncapped high-salt monomer.
One numbering serves 1G, 2G and 3G.
A position is written with its base.

C185 (domain PBS) read 0.42. C187 (domain PBS) gave 0.03. C188 (domain PBS) gave 0.06. With C189 (domain PBS) the assay gave 0.09. A191 (domain PBS) read 0.47. A192 (domain PBS) gave 0.79. With C193 (domain PBS) the assay gave 0.83. For A194 (domain PBS) the result was 1.01. A198 (domain PBS) read 0.60.

C199 (domain PBS) gave 0.43. For A203 (domain PBS) the result was 0.53. For A204 (domain PBS) the result was 0.73. A205 (domain PBS) gave 0.39. C207 (domain PBS) read 0.42. A209 (domain PBS) read 0.49. With A210 (domain PBS) the assay gave 0.64. With A211 (domain PBS) the assay gave 0.43. A214 (domain PBS) read 0.29.

With A215 (domain PBS) the assay gave 0.58. A216 (domain PBS) gave 0.60. For C218 (domain antiPAS) the result was 0.03. C219 (domain antiPAS) read 0.04. With A220 (domain antiPAS) the assay gave 0.37. With A222 (domain antiPAS) the assay gave 0.29. A225 gave 0.84. A227 (domain CU) read 0.28. For C229 (domain CU) the result was 0.27.

With C231 (domain CU) the assay gave 0.17. With C233 (domain CU) the assay gave 0.27. A235 read 0.70. For C236 the result was 0.49. With C238 the assay gave 0.69. For A239 the result was 0.63. A242 gave 0.91. With C243 (domain SL1) the assay gave 0.06. C245 (domain SL1) gave 0.25.

With C248 (domain SL1) the assay gave 0.05. C252 (domain SL1) read 0.20. With A255 (domain SL1) the assay gave 0.59. With A256 (domain SL1) the assay gave 0.87. C258 (domain SL1) gave 0.34. C260 (domain SL1) read 0.49. With C262 (domain SL1) the assay gave 0.40. For A263 (domain SL1) the result was 0.27. C264 (domain SL1) gave 0.42.

For C267 (domain SL1) the result was 0.14. A268 (domain SL1) gave 0.28. With A269 (domain SL1) the assay gave 0.47.

Extract of 5 entries:

position,domain,2G uncapped high-salt monomer
A225,none,0.84
A210,PBS,0.64
A242,none,0.91
A209,PBS,0.49
A269,SL1,0.47

Values reported by Ye et al. 2022 (doi:10.1038/s41594-022-00746-2).